Sequence variants of PSTVd loop 6 after infection

The measurements come from Wu et al. 2024 (doi:10.1371/journal.ppat.1012142).

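A pool of all variants was put on leaves of three Nicotiana benthamiana plants. Progeny were sequenced from the inoculated region (day 5), the margin of the inoculated leaf (day 10) and systemic leaves (day 12).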

PSTVd intermediate strain, loop 6: wild type UGACCGCGAG, pool pattern UNNNCGNNNG; upper and lower strand joined, each 5' to 3', the first 5 letters being the upper strand, closing pairs included.

Values are reads per thousand in the sample; higher means more abundant, 0 means not found. Each site shows the three plants. "Pool" is the share in the plasmid pool used as inoculum, on the same scale. The inoculated region was read from the minus strand, the other sites from the plus strand. IR is the inoculated region, LM the leaf margin, Sys the systemic leaves. With 36,220-57,551 reads a sample, very low values are single reads. The authors trace changes outside the varied positions to PCR and sequencing errors or to mutation in the plant; presence does not show that a variant is infectious alone. For reference, wild type rose from 20.7 per thousand in the pool to 195, 198, 203 (inoculated region), 629, 591, 734 (leaf margin) and 942, 870, 868 (systemic leaves).

sequence,pool,IR,LM,Sys
UAUACGCCAG,0.340,0.0695 / 0.0539 / 0.0922,0.0552 / 0 / 0,0.0180 / 0.0202 / 0.0410
UAUACGCCCG,0.288,0.0869 / 0.0898 / 0.166,0 / 0 / 0,0 / 0 / 0
UAUACGCCGG,0.157,0.122 / 0.108 / 0.0553,0 / 0 / 0,0 / 0 / 0
UAUACGCCUG,0.288,0.0695 / 0.0898 / 0.148,0 / 0 / 0.0696,0 / 0 / 0
UAUACGCGAG,0.353,0.295 / 0.234 / 0.350,0.221 / 0.328 / 0.696,0.0359 / 0.0808 / 0.0615
UAUACGCGAU,0.0131,0.0174 / 0.0898 / 0.148,0.0828 / 0 / 0.0464,0 / 0 / 0
UAUACGCGCG,0.222,0.608 / 0.736 / 0.627,0.138 / 0.101 / 0.0464,0 / 0 / 0
UAUACGCGGG,0.353,0.0348 / 0.162 / 0.0738,0 / 0 / 0.0232,0 / 0.0202 / 0
UAUACGCGUG,0.275,0.0869 / 0.0359 / 0.129,0 / 0 / 0,0 / 0 / 0
UAUACGCUAG,0.196,0.139 / 0.108 / 0.111,0 / 0 / 0,0 / 0 / 0.0205
UAUACGCUCG,0.405,0.139 / 0.0719 / 0.0369,0 / 0 / 0,0 / 0 / 0
UAUACGCUGG,0.196,0.104 / 0.0180 / 0.111,0.0276 / 0 / 0,0 / 0 / 0
UAUACGCUUG,0.366,0.122 / 0.0719 / 0.0369,0.0276 / 0 / 0,0 / 0 / 0
UAUACGGAAG,0.248,0.469 / 0.808 / 0.590,0.0828 / 0.126 / 0.0928,0 / 0 / 0
UAUACGGACG,0.275,0.817 / 0.862 / 0.498,0.166 / 0.0504 / 0.0232,0 / 0.0606 / 0.0820
UAUACGGAGG,0.261,0.0521 / 0.180 / 0.0738,0 / 0 / 0,0 / 0 / 0
UAUACGGAUG,0.301,0.139 / 0.108 / 0.0922,0 / 0 / 0,0 / 0 / 0
UAUACGGCAG,0.314,0.678 / 0.719 / 0.719,0.138 / 0 / 0,0 / 0 / 0
UAUACGGCCG,0.275,0.817 / 0.593 / 0.535,0.0828 / 0 / 0,0.0180 / 0.0404 / 0.0205
UAUACGGCGG,0.209,0.156 / 0.144 / 0.148,0 / 0 / 0,0 / 0 / 0
UAUACGGCUG,0.248,0.834 / 0.647 / 0.369,0.110 / 0.227 / 0.0928,0.0359 / 0.0404 / 0.0615
UAUACGGGAG,0.235,0.886 / 0.719 / 0.406,0.0276 / 0.126 / 0.116,0 / 0 / 0
UAUACGGGCG,0.288,0.782 / 0.467 / 0.516,0.0552 / 0.126 / 0.0464,0 / 0.0606 / 0.0615
UAUACGGGGG,0.222,0.174 / 0.0539 / 0.0553,0 / 0 / 0,0 / 0 / 0
UAUACGGGUG,0.418,0.0695 / 0.144 / 0.0553,0 / 0 / 0,0 / 0 / 0
UAUACGGUAG,0.288,0.0695 / 0.144 / 0.129,0 / 0 / 0.0232,0 / 0 / 0
UAUACGGUCG,0.340,0.156 / 0.162 / 0.129,0 / 0 / 0.0232,0 / 0 / 0
UAUACGGUGG,0.418,0.0869 / 0.251 / 0.0738,0.0276 / 0.0504 / 0,0 / 0 / 0
UAUACGGUUG,0.196,0.139 / 0.162 / 0.166,0 / 0 / 0,0 / 0 / 0
UAUACGUAAG,0.288,0.0695 / 0.0719 / 0.0184,0 / 0 / 0.0232,0 / 0 / 0
UAUACGUACG,0.248,0.122 / 0.0719 / 0.0553,0 / 0 / 0,0 / 0 / 0
UAUACGUACU,0.0131,0 / 0 / 0,0 / 0 / 0,0 / 0 / 0
UAUACGUAGG,0.340,0.156 / 0.0898 / 0.0553,0 / 0 / 0,0 / 0 / 0
UAUACGUAUG,0.458,0.226 / 0.108 / 0.129,0.304 / 0 / 0,0 / 0 / 0
UAUACGUCAG,0.288,0.104 / 0.108 / 0.148,0.0276 / 0 / 0.0232,0 / 0 / 0
UAUACGUCCG,0.235,0.174 / 0.0539 / 0.0738,0 / 0 / 0,0 / 0 / 0
UAUACGUCGG,0.275,0.0695 / 0.144 / 0.0922,0.0552 / 0 / 0.0232,0 / 0 / 0
UAUACGUCUG,0.379,0.156 / 0.0719 / 0.129,0 / 0 / 0,0 / 0 / 0

The first 2 entries again:

sequence	pool	IR	LM	Sys
UAUACGCCAG	0.340	0.0695 / 0.0539 / 0.0922	0.0552 / 0 / 0	0.0180 / 0.0202 / 0.0410
UAUACGCCCG	0.288	0.0869 / 0.0898 / 0.166	0 / 0 / 0	0 / 0 / 0